Assay results published in patent US20040091855A1, “Method for production of antivirals by use of HIV-derived HR1 peptides, and trimers formed therefrom” (priority 2002, published 2004).
Read-outs that look alike come from different tables or passages of the source.

Key:
[1] = system: HIV IIIB; assay type: cell-based, HIV-1
[2] = system: HR2 peptide (SEQ ID NO:33); experiment: Fluorescence polarization assay of binding to labeled HR2 peptide; design: species or system HIV-1; details: ability to complex with HR2 peptide denoted as yes
Text: These include a protein chip assay (using Biacore analysis) in which surface plasmon resonance is used to detect the binding, and kinetics thereof, between a synthetic peptide and an HR2 peptide; and a fluorescence polarization assay. In the fluorescence polarization assay, a detectable moiety comprising a fluorescent dye (e.g., rhodamine and/or fluorescein) was used to label HR2 peptide, and the assay was then allowed to proceed under sufficient conditions and for a sufficient period of time for labeled peptide to bind to HR1 peptide, or synthetic peptide (or trimer formed therefrom).

[3] = Helicity by circular dichroism; assay type: physicochemical; details: at 10 μM, 25° C.
Protocol: (§1) Helicity was assessed by circular dichroism (“CD”) as follows. Briefly, CD spectra were obtained using a spectrometer equipped with a thermoelectric temperature controller. The spectra was obtained at 25° C. with 0.5 nanometer (nm) steps from 200 to 260 nm, with a 1.5 nm bandwith, and a typical averaging time of 4 seconds/step. After the cell/buffer blank was subtracted, spectra were smoothed using a third-order least-squares polynomial fit with a conservative window size to give random residuals. Raw ellipticity values were converted to mean residue ellipticity using standard methods, and plotted was the wavelength (from 200 to 260 nm) versus [θ]×10^−3 (degrees cm^2/dmol). Percent helicity values were then calculated using standard methods. Assessment of thermal stability was performed by monitoring the change in CD signal at 222 nm as temperature was raised in 2° C. steps, with 1 minute equilibration times. The thermal stability for each sample (e.g., synthetic peptide) was represented by the transition temperature (Tm) determined by the derivative method.

[4] = Sedimentation equilibrium experiments (oligomerization state); assay type: physicochemical; details: in solution; peptide 1 μM to 100 μM
Protocol: Oligomerization state was assessed by using methods standard in the art for performing sedimentation equilibrium experiments and for analysis of the resultant data. In that regard, sedimentation equilibrium experiments were performed over a concentration range of synthetic peptide (1 μM to 100 μM) as follows. Briefly, six-channel cells (12 mm optical path length) were used with an An-60 Ti rotor operated at 13,500 rpm, 18,000 rpm, 22,000 rpm, and 35,000 rpm) in an analytical ultracentrifuge at 4C. The cell radii were scanned using 0.001 cm steps with 10 averages/scan at 3 different wavelengths (235 nm, 240 nm, 280 nm). Data obtained with solutions containing synthetic peptide was analyzed using a single species model to determine a weight-averaged molecular weight (MW). Diagnostic plots of MW/ MW0 vs. rpm/rpm0 and MW vs. radial concentration were used to test for sample homogeneity. When systemic residuals or a MW higher than monomer molecular weight indicated the presence of self-association, associative models were investigated. The suitability of a model (goodness of fit) was judged by the trends observed in the residuals.

[5] = Thermal stability (Tm) by CD signal at 222 nm; assay type: physicochemical; details: at 10 μM
Protocol: as §1

SMILES	Antiviral activity against HIV IIIB IC50 ([1]; 50% reduction in infectious virus titer)	Antiviral activity against HIV IIIB IC90 ([1]; 90% reduction in infectious titer)	HR2 peptide binding [2]	Helicity [3]	Oligomerization [4]	Stability Tm [5]	Antiviral activity against HIV IIIB IC50 ([1]; IIIB)	Antiviral activity against HIV IIIB IC90 ([1]; IIIB)
CC[C@H](C)[C@H](NC(=O)[C@H](Cc1ccc(O)cc1)NC(=O)[C@H](CCCNC(=N)N)NC(=O)[C@H](CCC(=O)O)NC(=O)[C@H](CC(C)C)NC(=O)[C@H](C)NC(=O)[C@H](CC(C)C)NC(=O)[C@@H](NC(=O)[C@H](CCCNC(=N)N)NC(=O)[C@H](C)NC(=O)[C@H](CCC(N)=O)NC(=O)[C@H](CC(C)C)NC(=O)[C@H](CCC(N)=O)NC(=O)[C@H](CCCCN)NC(=O)[C@@H](NC(=O)CNC(=O)[C@H](Cc1c[nH]c2ccccc12)NC(=O)[C@@H](NC(=O)[C@H](CC(C)C)NC(=O)[C@H](C)NC(=O)[C@H](CCC(N)=O)NC(=O)[C@@H](NC(=O)[C@H](C)NC(=O)[C@H](Cc1c[nH]cn1)NC(=O)[C@H](CCC(N)=O)NC(=O)[C@@H](NC(=O)[C@H](C)NC(=O)[C@H](CCC(=O)O)NC(=O)[C@H](CC(C)C)NC(=O)[C@H](C)NC(=O)[C@H](CCCNC(=N)N)NC(=O)[C@H](CC(C)C)NC(=O)[C@@H](NC(=O)[C@H](CC(N)=O)NC(=O)[C@H](CC(N)=O)NC(=O)[C@H](CCC(N)=O)NC(=O)[C@H](CCC(N)=O)NC(=O)[C@H](CCC(N)=O)NC(=O)[C@@H](NC(=O)[C@H](CC(C)C)NC(=O)CNC(=O)[C@H](CO)NC(=O)[C@@H](NC(=O)[C@H](CC(C)C)NC(=O)[C@H](CCC(N)=O)NC(=O)[C@H](CCCNC(=N)N)NC(=O)[C@H](C)NC(=O)[C@H](CCC(N)=O)NC(C)=O)C(C)C)C(C)C)[C@@H](C)CC)[C@@H](C)O)C(C)C)C(C)C)C(C)C)C(C)C)C(=O)N[C@@H](CCCCN)C(N)=O [SEQ ID NO:35]	0.14 µg/mL	0.69 µg/mL	Yes	78%	Trimer	Tm >97 °C		
CC[C@H](C)[C@H](NC(=O)CNC(=O)[C@H](Cc1c[nH]c2ccccc12)NC(=O)[C@@H](NC(=O)[C@@H](NC(=O)[C@H](C)NC(=O)[C@H](CCC(N)=O)NC(=O)[C@H](CC(C)C)NC(=O)[C@H](CC(C)C)NC(=O)[C@H](Cc1c[nH]cn1)NC(=O)[C@H](CCC(N)=O)NC(=O)[C@H](CCC(N)=O)NC(=O)[C@H](C)NC(=O)[C@H](CCC(=O)O)NC(=O)[C@@H](NC(=O)[C@H](C)NC(=O)[C@H](CCCNC(=N)N)NC(=O)[C@H](CC(C)C)NC(=O)[C@H](CC(C)C)NC(=O)[C@H](CC(N)=O)NC(=O)[C@H](CC(N)=O)NC(=O)[C@H](CCC(N)=O)NC(=O)[C@H](CCC(N)=O)NC(=O)[C@H](CCC(N)=O)NC(=O)[C@@H](NC(=O)[C@@H](NC(=O)CNC(=O)[C@H](CO)NC(=O)[C@H](CC(C)C)NC(=O)[C@H](CC(C)C)NC(=O)[C@H](CCC(N)=O)NC(=O)[C@H](CCCNC(=N)N)NC(=O)[C@H](C)NC(=O)[C@H](CCC(N)=O)NC(C)=O)[C@@H](C)CC)C(C)C)[C@@H](C)CC)[C@@H](C)O)C(C)C)C(=O)N[C@@H](CCCCN)C(=O)N[C@@H](CCC(N)=O)C(=O)N[C@@H](CC(C)C)C(=O)N[C@@H](CCC(N)=O)C(=O)N[C@@H](C)C(=O)N[C@@H](CCCNC(=N)N)C(=O)N[C@H](C(=O)N[C@@H](CC(C)C)C(=O)N[C@@H](C)C(=O)N[C@H](C(=O)N[C@@H](CCC(=O)O)C(=O)N[C@@H](CCCNC(=N)N)C(=O)N[C@@H](Cc1ccc(O)cc1)C(=O)N[C@@H](CC(C)C)C(=O)N[C@@H](CCCCN)C(=O)N[C@@H](CC(=O)O)C(=O)N[C@@H](CCC(N)=O)C(N)=O)C(C)C)[C@@H](C)CC [SEQ ID NO:47]			Yes	68%	a trimeric	Tm 77 °C	0.61 µg/mL	
CC[C@H](C)[C@H](NC(=O)CNC(=O)[C@H](CO)NC(=O)[C@H](CC(C)C)NC(=O)[C@H](CC(C)C)NC(=O)[C@H](CCC(N)=O)NC(=O)[C@H](CCCNC(=N)N)NC(=O)[C@H](C)NC(=O)[C@H](CCC(N)=O)NC(C)=O)C(=O)N[C@H](C(=O)N[C@@H](CCC(N)=O)C(=O)N[C@@H](CCC(N)=O)C(=O)N[C@@H](CCC(N)=O)C(=O)N[C@@H](CC(N)=O)C(=O)N[C@@H](CC(N)=O)C(=O)N[C@@H](CC(C)C)C(=O)N[C@@H](CC(C)C)C(=O)N[C@@H](CCCNC(=N)N)C(=O)N[C@@H](C)C(=O)N[C@H](C(=O)N[C@@H](CCC(=O)O)C(=O)N[C@@H](C)C(=O)N[C@H](C(=O)N[C@@H](CCC(N)=O)C(=O)N[C@@H](Cc1c[nH]cn1)C(=O)N[C@@H](C)C(=O)N[C@H](C(=O)N[C@@H](CCC(N)=O)C(=O)N[C@@H](C)C(=O)N[C@@H](CC(C)C)C(=O)N[C@H](C(=O)N[C@@H](Cc1c[nH]c2ccccc12)C(=O)NCC(=O)N[C@H](C(=O)N[C@@H](CCCCN)C(=O)N[C@@H](CCC(N)=O)C(=O)N[C@@H](CC(C)C)C(=O)N[C@@H](CCC(N)=O)C(=O)N[C@@H](C)C(=O)N[C@@H](CCCNC(=N)N)C(=O)N[C@H](C(=O)N[C@@H](CC(C)C)C(=O)N[C@@H](C)C(=O)N[C@@H](CC(C)C)C(=O)N[C@@H](CCC(=O)O)C(=O)N[C@@H](CCCNC(=N)N)C(=O)N[C@@H](Cc1ccc(O)cc1)C(=O)N[C@H](C(=O)N[C@@H](CCCCN)C(=O)N[C@@H](CC(=O)O)C(=O)N[C@@H](CCC(N)=O)C(N)=O)[C@@H](C)CC)C(C)C)C(C)C)C(C)C)C(C)C)[C@@H](C)O)[C@@H](C)CC)C(C)C [SEQ ID NO:38]			Yes	79%	Trimer*	Tm 90 °C	0.18 µg/mL	0.88 µg/mL
CC[C@H](C)[C@H](NC(=O)[C@H](Cc1ccc(O)cc1)NC(=O)[C@H](CCCNC(=N)N)NC(=O)[C@H](CCC(=O)O)NC(=O)[C@H](CC(C)C)NC(=O)[C@H](C)NC(=O)[C@H](CC(C)C)NC(=O)[C@@H](NC(=O)[C@H](CCCNC(=N)N)NC(=O)[C@H](C)NC(=O)[C@H](CCC(N)=O)NC(=O)[C@H](CC(C)C)NC(=O)[C@H](CCC(N)=O)NC(=O)[C@H](CCCNC(=N)N)NC(=O)[C@@H](NC(=O)CNC(=O)[C@H](Cc1c[nH]c2ccccc12)NC(=O)[C@@H](NC(=O)[C@H](CC(C)C)NC(=O)[C@H](C)NC(=O)[C@H](CCC(N)=O)NC(=O)[C@@H](NC(=O)[C@H](C)NC(=O)[C@H](Cc1c[nH]cn1)NC(=O)[C@H](CCC(N)=O)NC(=O)[C@@H](NC(=O)[C@H](C)NC(=O)[C@H](CCC(=O)O)NC(=O)[C@H](CC(C)C)NC(=O)[C@H](C)NC(=O)[C@H](CCCNC(=N)N)NC(=O)[C@H](CC(C)C)NC(=O)[C@@H](NC(=O)[C@H](CC(N)=O)NC(=O)[C@H](CC(N)=O)NC(=O)[C@H](CCC(N)=O)NC(=O)[C@H](CCC(N)=O)NC(=O)[C@H](CCC(N)=O)NC(=O)[C@@H](NC(=O)[C@H](CC(C)C)NC(=O)CNC(=O)[C@H](CO)NC(=O)[C@@H](NC(=O)[C@H](CC(C)C)NC(=O)[C@H](CCC(N)=O)NC(=O)[C@H](CCCNC(=N)N)NC(=O)[C@H](C)NC(=O)[C@H](CCC(N)=O)NC(C)=O)C(C)C)C(C)C)[C@@H](C)CC)[C@@H](C)O)C(C)C)C(C)C)C(C)C)C(C)C)C(=O)N[C@@H](CCCCN)C(N)=O [SEQ ID NO:37]			Yes	85%	Trimer*	Tm >97 °C	<0.78 µg/mL	
